Anti-infective test results gathered from many reports (values: NIAID ChemDB through PubChem).

Shared fields: whole-cell or culture tests; agent: HIV-2; read-out: EC50

Blank or dashed fields: not listed here. ECn is the concentration giving n% inhibition of infection, replication or growth. Neighbouring rows are from separate reports.

structure,cells,method,strain or isolate,value
Cc1cn([C@@H]2O[C@@H]3CN[C@@]4(C#N)CS(=O)(=O)O[C@@]34[C@H]2O)c(=O)[nH]c1=O,MT-4,,ROD,>250 µM
COC(=O)CNP(=O)(OC[C@@H]1C=C[C@H](n2cc(C)c(=O)[nH]c2=O)O1)Oc1ccccc1,CEM + CEM/0,cytopathic effect / trypan blue,ROD,6 µM
O=C1[C@@H](Cc2ccccc2)NC(=S)N1Cc1ccccc1,MT-4,RT activity,,<10 µg/mL
Cc1cn([C@@H]2O[C@@H]3CN[C@@]4(OCc5ccccc5)CS(=O)(=O)O[C@@]34[C@H]2O[Si](C)(C)C(C)(C)C)c(=O)[nH]c1=O,MT-4,,ROD,>10 µM
COC(=O)CCCCCCNP(=O)(OC[C@@H]1C=C[C@H](n2cc(C)c(=O)[nH]c2=O)O1)Oc1ccccc1,CEM + CEM TK-,cytopathic effect / trypan blue,ROD,>250 µM
CCCCCCCC/C=C\CCCCCCCC(=O)Oc1ccc(COP(=O)(OCc2ccc(OC(=O)CCCCCCC/C=C\CCCCCCCC)cc2)OP(=O)(O)OC[C@@H]2C=C[C@H](n3cc(C)c(=O)[nH]c3=O)O2)cc1,CEM,syncytia / microscopy,ROD,1.8 µM
N#Cc1csc(NC(=O)NCCc2ccccc2)n1,MT-4,cytopathic effect / XTT,,>100 µg/mL
Cc1cn([C@@H]2O[C@@H]3CN[C@@]4(C(N)=O)CS(=O)(=O)O[C@@]34[C@H]2O)c(=O)[nH]c1=O,CEM,,ROD,>250 µM
CCCCCCCCCCCCCCCC(=O)Oc1ccc(COP(=O)(OCc2ccc(OC(=O)CCCCCCCCCCCCCCC)cc2)OP(=O)(O)OC[C@@H]2C=C[C@H](n3cc(C)c(=O)[nH]c3=O)O2)cc1,CEM/TK-,syncytia / microscopy,ROD,0.99 µM
CN[C@@H]1[C@H](O[C@@H]2OC[C@@H](O)[C@H](O)[C@H]2O)[C@@H](O)[C@H](O[C@H]2c3cc(C)c(C(=O)N[C@H](C)C(=O)O)c(O)c3-c3c(cc4c(c3O)C(=O)c3cc(OC)cc(O)c3C4=O)[C@@H]2O)O[C@@H]1C,CD4+ T-cell,MTS,ROD,5.9 µM
Cc1cn([C@@H]2OC3CN[C@@]4(OCC(C)C)CS(=O)(=O)O[C@@]34[C@H]2O[Si](C)(C)C(C)(C)C)c(=O)[nH]c1=O,MT-4,,ROD,>10 µM
COc1cc(C)cc2c(-c3c(O)cc(O)c4c3C[C@H](C)N[C@H]4C)cc(-c3cc(-c4c(O)cc(O)c5c4C[C@H](C)N[C@H]5C)c4cc(C)cc(OC)c4c3O)c(O)c12,CEM + CEM-SS,cytopathic effect / XTT,NIH-DZ,25 µM
Cc1cn([C@H]2C=C[C@@H](CO)O2)c(=O)[nH]c1=O,CEM + CEM/0,cytopathic effect / trypan blue,ROD,0.27 µM
O=C(NCCc1ccccc1)Nc1nncs1,MT-4,RT activity,,<1 µg/mL
CCCCCCCCCC(=O)Oc1ccc(COP(=O)(OCCC#N)OP(=O)(O)OC[C@@H]2C=C[C@H](n3cc(C)c(=O)[nH]c3=O)O2)cc1,CEM,syncytia / microscopy,ROD,5 µM
CCCOC12CS(=O)(=O)OC13[C@@H](CN2)O[C@@H](n1cc(C)c(=O)[nH]c1=O)[C@@H]3O,CEM,,ROD,>250 µM
CCCCCCCCCC(=O)Oc1ccc(COP(=O)(OCc2ccc(OC(=O)CCCCCCCCC)cc2)OP(=O)(O)OC[C@@H]2C=C[C@H](n3cc(C)c(=O)[nH]c3=O)O2)cc1,CEM/TK-,syncytia / microscopy,ROD,0.11 µM
Cc1cn([C@@H]2O[C@@H]3CN[C@@]4(OCC(C)C)CS(=O)(=O)O[C@@]34[C@H]2O)c(=O)[nH]c1=O,MT-4,,ROD,>250 µM
COC(=O)CCNP(=O)(OC[C@@H]1C=C[C@H](n2cc(C)c(=O)[nH]c2=O)O1)Oc1ccccc1,CEM + CEM TK-,cytopathic effect / trypan blue,ROD,>250 µM
CN1C(=O)[C@@H](Cc2ccccc2)NC1=S,MT-4,RT activity,,<100 µg/mL
CO[C@]12CS(=O)(=O)O[C@@]13C(CN2)O[C@@H](n1cc(C)c(=O)[nH]c1=O)[C@@H]3O[Si](C)(C)C(C)(C)C,MT-4,,ROD,>50 µM

3 of the rows above, restated:

structure | cells | method | strain or isolate | value
CN[C@@H]1[C@H](O[C@@H]2OC[C@@H](O)[C@H](O)[C@H]2O)[C@@H](O)[C@H](O[C@H]2c3cc(C)c(C(=O)N[C@H](C)C(=O)O)c(O)c3-c3c(cc4c(c3O)C(=O)c3cc(OC)cc(O)c3C4=O)[C@@H]2O)O[C@@H]1C | CD4+ T-cell | MTS | ROD | 5.9 µM
COC(=O)CNP(=O)(OC[C@@H]1C=C[C@H](n2cc(C)c(=O)[nH]c2=O)O1)Oc1ccccc1 | CEM + CEM/0 | cytopathic effect / trypan blue | ROD | 6 µM
CN1C(=O)[C@@H](Cc2ccccc2)NC1=S | MT-4 | RT activity |  | <100 µg/mL